Reference: US20250320281A1 (published 2025)
Changes are numbered by the printed parent chain.

Assays:
Assay in all cases: cell-based or functional assay
[1] = target: HIV-1 Env of isolate MG RM-A-008 (subtype A) (HIV-1)
[2] = target: HIV-1 Env of isolate MG RM-A-006 (subtype A) (HIV-1)
[3] = target: HIV-1 Env of isolate MG RM-A-007 (subtype A) (HIV-1)
[4] = target: HIV-1 Env of isolate 92BR020 (pseudovirus) (HIV-1)
[5] = target: HIV-1 Env of isolate MGRM-C-026 (pseudovirus) (HIV-1)
[6] = target: HIV-1 Env of isolate MG RM-A-011 (subtype A) (HIV-1)
[7] = target: HIV-1 Env of isolate MG RM-A-012 (subtype A) (HIV-1)
[8] = target: HIV-1 Env of isolate MG RM-A-009 (subtype A) (HIV-1)
[9] = target: HIV-1 94UG103 Env on pseudotyped virus (HIV-1 isolate 94UG103)
[10] = target: HIV-1 92BR020 Env on pseudotyped virus (HIV-1 isolate 92BR020)
[11] = target: HIV-1 SF162 Env on pseudotyped virus (HIV-1 isolate SF162)
[12] = target: HIV-1 IAVI_C22 Env on pseudotyped virus (HIV-1 isolate IAVI_C22)
[13] = target: HIV-1 93IN905 Env on pseudotyped virus (HIV-1 isolate 93IN905)
[14] = target: HIV-1 NL43 Env on pseudotyped virus (HIV-1 NL43)
[15] = target: HIV-1 92TH021 Env on pseudotyped virus (HIV-1 isolate 92TH021)
[16] = target: HIV-1 CMU02 envelope glycoprotein (Env) on pseudovirus (HIV-1)
[17] = target: HIV-1 93UG077 envelope glycoprotein (Env) on pseudovirus (HIV-1)
[18] = target: HIV-1 APV-6 envelope glycoprotein (Env) on pseudovirus (HIV-1)
[19] = target: HIV-1 APV-13 envelope glycoprotein (Env) on pseudovirus (HIV-1)
[20] = target: HIV-1 APV-17 envelope glycoprotein (Env) on pseudovirus (HIV-1)
[21] = target: HIV-1 92UG005 envelope glycoprotein (Env) on pseudovirus (HIV-1)
[22] = target: HIV-1 92UG024 envelope glycoprotein (Env) on pseudovirus (HIV-1)
[23] = target: HIV-1 94UG103 envelope glycoprotein (Env) on pseudovirus (HIV-1)
[24] = target: HIV-1 92RW020 envelope glycoprotein (Env) on pseudovirus (HIV-1)
[25] = target: HIV-1 93IN905 envelope glycoprotein (Env) on pseudovirus (HIV-1)
[26] = target: HIV-1 IAVI-C3 envelope glycoprotein (Env) on pseudovirus (HIV-1)
[27] = target: HIV-1 IAVI-C22 envelope glycoprotein (Env) on pseudovirus (HIV-1)
[28] = target: HIV-1 92TH021 envelope glycoprotein (Env) on pseudovirus (HIV-1)
[29] = target: HIV-1 IAVI-C18 envelope glycoprotein (Env) on pseudovirus (HIV-1)
[30] = target: HIV-1 92BR020 envelope glycoprotein (Env) on pseudovirus (HIV-1)

B1: 4995_P16 (PGT-145) (antibody, V domains shown)
VH: QVQLVQSGAEVKKPGSSVKVSCKASGNSFSNHDVHWVRQATGQGLEWMGWMSHEGDKTGLAQKFQGRVTITRDSGASTVYMELRGLTADDTAIYYCLTGSKHRLRDYFLYNEYGPNYEEWGDYLATLDVWGHGTAVTVSS
VL: EVVITQSPLFLPVTPGEAASLSCKCSHSLQHSTGANYLAWYLQRPGQTPRLLIHLATHRASGVPDRFSGSGSGTDFTLKISRVESDDVGTYYCMQGLHSPWTFGQGTKVEIK
> 50 µg/mL: IC50 (µg/mL), pseudovirus neutralization [1] | IC50 (µg/mL), pseudovirus neutralization [2] | IC50 (µg/mL), pseudovirus neutralization [3]

B2: 4838_L06 (PGT-121) (antibody, V domains shown)
VH: QMQLQESGPGLVKPSETLSLTCSVSGASISDSYWSWIRRSPGKGLEWIGYVHKSGDTNYSPSLKSRVNLSLDTSKNQVSLSLVAATAADSGKYYCARTLHGRRIYGIVAFNEWFTYFYMDVWGNGTQVTVSS
VL: SDISVAPGETARISCGEKSLGSRAVQWYQHRAGQAPSLIIYNNQDRPSGIPERFSGSPDSPFGTTATLTITSVEAGDEADYYCHIWDSRVPTKWVFGGGTTLTVL
4.9: Primary Neutralization Index (B cell culture supernatant) [4]
996: Primary Neutralization Index (B cell culture supernatant) [5]

B3: 4993_K13 (PGT-141) (antibody, V domains shown)
VH: QVQLVQSGPEVKKPGSSVKVSCKASGNTFSKYDVHWVRQATGQGLEWVGWMSHEGDKTESAQRFKGRVTFTRDTSASTAYMELRGLTSDDTAIYYCTRGSKHRLRDYVLYDDYGLINYQEWNDYLEFLDVWGHGTAVTVSS
VL: DTVVTQSPLSLPVTPGEAASMSCSSTQSLRHSNGANYLAWYQHKPGQSPRLLIRLGSQRASGVPDRFSGSGSGTHFTLKISRVEAEDAAIYYCMQGLNRPWTFGKGTKLEIK
> 50 µg/mL: IC50 (µg/mL), pseudovirus neutralization [1] | IC50 (µg/mL), pseudovirus neutralization [6] | IC50 (µg/mL), pseudovirus neutralization [2] | IC50 (µg/mL), pseudovirus neutralization [3] | IC50 (µg/mL), pseudovirus neutralization [7]

B4: 4980_N08 (PGT-143) (antibody, V domains shown)
VH: B3 VH with V5E, P9A
VL: B3 VL with S24T, A85P
0.05 µg/mL: IC50 (µg/mL), pseudovirus neutralization [8]
> 50 µg/mL: IC50 (µg/mL), pseudovirus neutralization [1] | IC50 (µg/mL), pseudovirus neutralization [6] | IC50 (µg/mL), pseudovirus neutralization [2] | IC50 (µg/mL), pseudovirus neutralization [3] | IC50 (µg/mL), pseudovirus neutralization [7]

B5: 4995_E20 (PGT-142) (antibody, V domains shown)
VH: B3 VH with M51I, G55R, S77T
VL: B3 VL
> 50 µg/mL: IC50 (µg/mL), pseudovirus neutralization [1] | IC50 (µg/mL), pseudovirus neutralization [6] | IC50 (µg/mL), pseudovirus neutralization [2] | IC50 (µg/mL), pseudovirus neutralization [3] | IC50 (µg/mL), pseudovirus neutralization [7]

B6: 1456_P20 (PG20) (antibody, V domains shown)
VH: QVRLVQSGPEVKKPGSSVTVSCQASGGTFSSYAFTWVRQAPGQGLEWLGMVTPIFGEAKYSQRFEGRVTITADESTSTTSIELRGLTSEDTAIYYCARDRRAVPIATDNWLDPWGQGTLVTVSS
VL: DIQLTQSPSSLSASVGDRVSITCRASQTINNYLNWYQQTPGKAPKLLIYGASNLQNGVPSRFSGSGSGTDFTLTISSLQPEDFATYYCQQSFSTPRTFGQGTRLDIKR
> 50 µg/mL: Neutralizing Antibody Assay: IC50; Virus/Ab Incubation 1 hour [9] | Neutralizing Antibody Assay: IC50; Virus/Ab Incubation 18 hour [9] | Neutralizing Antibody Assay: IC50; Virus/Ab Incubation 1 hour [10] | Neutralizing Antibody Assay: IC50; Virus/Ab Incubation 18 hour [10] | Neutralizing Antibody Assay: IC50; Virus/Ab Incubation 1 hour [12] | Neutralizing Antibody Assay: IC50; Virus/Ab Incubation 18 hour [12] | Neutralizing Antibody Assay: IC50; Virus/Ab Incubation 1 hour [13] | Neutralizing Antibody Assay: IC50; Virus/Ab Incubation 1 hour [15] | Neutralizing Antibody Assay: IC50; Virus/Ab Incubation 18 hour [15]
3.84 µg/mL: Neutralizing Antibody Assay: IC50; Virus/Ab Incubation 18 hour [13]
0.195 µg/mL: Neutralizing Antibody Assay: IC50; Virus/Ab Incubation 1 hour [11]
0.05 µg/mL: Neutralizing Antibody Assay: IC50; Virus/Ab Incubation 18 hour [14]
0.0661 µg/mL: Neutralizing Antibody Assay: IC50; Virus/Ab Incubation 18 hour [11]
0.2 µg/mL: Neutralizing Antibody Assay: IC50; Virus/Ab Incubation 1 hour [14]

B7: 1460_G14 (PGG14) (antibody, V domains shown)
VH: QVLLVQSGTEVKKPGSSVKVSCQASGGAFSSYAFSWVRQAPGQGLEWMGMITPVFGETKYAPRFQGRLTLTAEESLSTTYMELRSLTSDDTAFYYCTRDRRVVPMATDNWLDPWGQGTLVTVSS
VL: B6 VL with S20T, I21V, N30H, N31T, T39I, N53T, N56S, S76N, F92Y
> 50 µg/mL: IC50, pseudovirus neutralization [16] | IC50, pseudovirus neutralization [17] | IC50, pseudovirus neutralization [18] | IC50, pseudovirus neutralization [19] | IC50, pseudovirus neutralization [20] | IC50, pseudovirus neutralization [21] | IC50, pseudovirus neutralization [22] | IC50, pseudovirus neutralization [23] | IC50, pseudovirus neutralization [24] | IC50, pseudovirus neutralization [25] | IC50, pseudovirus neutralization [26] | IC50, pseudovirus neutralization [27] | IC50, pseudovirus neutralization [28] | IC50, pseudovirus neutralization [29] | IC50, pseudovirus neutralization [30]

B8: 1456_P20 (PG20) (antibody, V domains shown)
VH: B6 VH
VL: B6 VL
> 50 µg/mL: IC50, pseudovirus neutralization [16] | IC50, pseudovirus neutralization [17] | IC50, pseudovirus neutralization [19] | IC50, pseudovirus neutralization [20] | IC50, pseudovirus neutralization [21] | IC50, pseudovirus neutralization [22] | IC50, pseudovirus neutralization [23] | IC50, pseudovirus neutralization [24] | IC50, pseudovirus neutralization [25] | IC50, pseudovirus neutralization [26] | IC50, pseudovirus neutralization [27] | IC50, pseudovirus neutralization [28] | IC50, pseudovirus neutralization [29] | IC50, pseudovirus neutralization [30]
